Reference: the supplement of paper PMC12637763
Where a chain is given by its changes, count along the chain named. Some of the results follow. Env chains of viruses from a treatment-interruption trial, translated from the printed DNA. IC50 / IC80 of two broadly neutralizing antibodies; lower = more sensitive virus; >50 µg/ml means not reached and <0.001 µg/ml is below the lowest dose. No active / inactive call.

B1: HIV-1 Env, rebound clone, antibody arm (protein)
chain: MKVRGMKRNYQHLWGWGTMLLFWMIIMCKAAGNLWVTVYYGVPVWRDAETTLFCASDAKAYDKEVHNVWATHACVPTDPNPQEVRLENVTENFNMWENNMVEQMQTDIISLWDQSLKPCVKLTPLCVTLECTEPKLNSSTSNNSLSSTSNNSQYEEMKNCSFNMTTELRDKQKKVYSLFYKLDIVETDNNSSRYRLINCTTSTLTQACPKVTFEPIPIYYCAPAGFAILKCNDPQFNGTGPCTNVSTVQCTHGIKPVVSTQLLLNGSLAKEQVMIRSKNITDNSKTIIVQLKKPVNITCIRPGNNTRTSIRIGPGQAFYATGEITGDIRKAHCNVSRAEWNRTLQEISTQLQGYFNNKTIIFKNSSGGDLEVTTHSFNCGGEFFYCNTTKLFNSTWYGNETVINGTEASENITLQCRIKQIINMWQRVGQAMYAPPIRGEIRCESNITGLLLTRDGGGGNSSNNETFRPTGGDMRDNWRSELYKYKVVQVEPIGIAPTPAKRRVVEREKRAVGLGAAFLGFLGAAGSTMGAASLTLTVQARQLLSGIVQQQSNLLRAIEAQQHLLKLTVWGIKQLQARVLAVERYLRDQQLLGIWGCSGKLICTTAVPWNSSWSNKSYKDIWDNMTWMQWDKEVLNYTSIIYSLLEESQNQQEKNEQDLLALDKWASLWSWFDISKWLWYIKIFIMIVGGLIGLRIVFTVLSIINRVRQGYSPLSLQTLTPHPEEPDRPGRINEEGGEQDKGRSIRLVNGFLALAWDDLRSLCLFSYHRLRDFISIAARTVELLGRSSLKGLRLGWEGLKYLGNLLGYWSRELKNSAINLIDTIAIAVAGWTDRVIEIVQGSCRAIRNIPRRIRQGAEKALQ
B2: HIV-1 Env, rebound clone, antibody arm (protein)
chain: B1 chain with F22L, S141N, T200N
B3: HIV-1 Env, rebound clone, antibody arm (protein)
chain: B1 chain with M686I

The binders below were run against antibody 10-1074 (assay: neutralization IC50; higher = virus less sensitive to the antibody).
Protocol: (§1)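 Pseudovirus bearing the Env chain mixed with antibody, from 50 µg/ml in fivefold dilutions, on TZM-bl reporter cells, in duplicate.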
With B1 the “neutralization IC50” value was 0.209 µg/mL.
B2 was tested, and the “neutralization IC50” value was 0.109 µg/mL.
In the case of B3, the “neutralization IC50” value is reported as 0.158 µg/mL.

Each binder was assayed against antibody 3BNC117 in the same assay as above.
Protocol: as §1
For B1, the “neutralization IC50” value was 0.434 µg/mL.
For B2, the “neutralization IC50” value was 0.064 µg/mL.
B3 was tested, and the “neutralization IC50” value was 0.497 µg/mL.

What follows are binders tested against antibody 10-1074 (assay: neutralization IC80; higher = virus less sensitive to the antibody).
Protocol: as §1
For B1, the “neutralization IC80” value was 1.53 µg/mL.
For B2, the “neutralization IC80” value was 0.594 µg/mL.
In the case of B3, the “neutralization IC80” value is reported as 1.35 µg/mL.

The binders below were run against antibody 3BNC117 in the same assay as above.
Protocol: as §1
With B1 the “neutralization IC80” value was 1.44 µg/mL.
In the case of B2, the “neutralization IC80” value is reported as 0.178 µg/mL.
For B3, the “neutralization IC80” value was 2.18 µg/mL.
